Anti-infective test results gathered from many reports (values: NIAID ChemDB through PubChem).

Common to all: tests in culture; organism: Candida albicans

ECn is the concentration giving n% inhibition of infection, replication or growth. MIC50, MIC90 and the like: level of inhibition, or share of isolates inhibited. Rows are shuffled and stem from different studies. An empty or dashed field is not shown.

smiles	read by	setting	measure	strain	value
CCCCCCCC(Cn1ccnc1)c1ccc(F)cc1			MIC		10 µg/mL
CCC(C)n1ncn(-c2ccc(N3CCN(c4ccc(OC[C@H]5CO[C@](Cn6cncn6)(c6ccc(Cl)cc6Cl)O5)cc4)CC3)cc2)c1=O			MFC50	12 isolates	>8 µg/mL
CCCCCCCCOc1ccc(C(=O)NC2C[C@@H](O)[C@@H](O)NC(=O)C3[C@@H](O)[C@@H](C)CN3C(=O)C(C(C)O)NC(=O)C([C@H](O)[C@@H](O)c3ccc(O)cc3)NC(=O)C3C[C@@H](O)CN3C(=O)C(C(C)O)NC2=O)cc1			MIC	MY1208	1 µg/mL
C[C@@H](n1cnc2cc(F)ccc2c1=O)[C@](O)(Cn1cncn1)c1ccc(F)cc1F			MIC	60 strains	0.07 µg/mL
CCCCCCCCOC[N+](C)(C)Cc1cc(N=Nc2ccc(C)cc2)ccc1O			MIC		36 µM
CC[C@@H]([C@H](C)O)n1ncn(-c2ccc(N3CCN(c4ccc(OC[C@@H]5CO[C@@](Cn6cncn6)(c6ccc(F)cc6F)C5)cc4)CC3)cc2)c1=O	broth dilution	pH 6	EC90	15 isolates	0.03 µg/mL
CCC(C)CC(C)CCCCCCCCC(=O)N[C@H]1C[C@@H](O)[C@H](NCCN)NC(=O)[C@@H]2[C@@H](O)CCN2C(=O)[C@H]([C@H](O)CCN)NC(=O)[C@H]([C@H](O)[C@@H](O)c2ccc(O)cc2)NC(=O)[C@@H]2C[C@@H](O)CN2C(=O)[C@H]([C@@H](C)O)NC1=O	broth dilution		MIC	C294	0.02 µg/mL
CCCCCCCOC[N+](C)(C)Cc1cc(N=Nc2ccc(C)cc2)ccc1O			MIC		288 µM
CCC(C)CC(C)CCCCCCCCC(=O)N[C@H]1C[C@@H](O)[C@H](NCCN)NC(=O)[C@@H]2[C@@H](O)CCN2C(=O)[C@H]([C@H](O)CCN)NC(=O)[C@H]([C@H](O)[C@@H](O)c2ccc(O)cc2)NC(=O)[C@@H]2C[C@@H](O)CN2C(=O)[C@H]([C@@H](C)O)NC1=O			MFC90	10 strains (fluconazole-resistant)	2 µg/mL
CCCCCOc1ccc(-c2ccc(-c3ccc(C(=O)N[C@H]4CCCNC(=O)C5[C@H](N)CN5C(=O)C(C(C)O)NC(=O)C(CCc5ccc(O)cc5)NC(=O)C5C[C@@H](O)CN5C(=O)C(C(C)O)NC4=O)cc3)cc2)cc1			MIC	ATCC 62376	0.2 µg/mL
C[C@@H](n1cnc2cc(OCCF)ccc2c1=O)[C@](O)(Cn1cncn1)c1ccc(F)cc1F			MIC	60 strains	0.07 µg/mL
CCCCCCCCCCCCOC[N+](C)(C)Cc1cc(N=Nc2ccc(C)cc2)ccc1O			MIC		1986 µM
C[C@H]([C@](O)(Cn1cncn1)c1ccc(F)cc1F)S(C)(=O)=O			MIC	406 strains	0.15 µg/mL
C[C@@H](c1ncncc1F)[C@](O)(Cn1cncn1)c1ccc(F)cc1F	broth dilution	pH 5	EC90	15 isolates	0.03 µg/mL
CC(C)S(=O)(=O)N1CCN(c2cnn(-c3cc(F)cc(F)c3)c(=O)c2OC2CCC(F)C2)CC1	broth dilution		MIC	C693	0.06 µg/mL
C[C@@H](n1cnc2cc(NN)ccc2c1=O)[C@](O)(Cn1cncn1)c1ccc(F)cc1F			MIC	76 strains	20 µg/mL
Cc1ccc(N=Nc2ccc(O)c(C[N+](C)(C)COCCC3CCCCC3)c2)cc1			MBC		280 µM
C[C@H]1[C@H](O)[C@@H](C)/C=C/C=C/C=C/C=C/C=C/C=C/C=C/[C@H](O[C@@H]2O[C@H](C)[C@@H](O)[C@H](N)[C@@H]2O)C[C@@H]2O[C@](O)(C[C@@H](O)C[C@@H](O)CC[C@H](O)[C@@H](O)C[C@@H](O)CC(=O)O[C@H]1C)C[C@H](O)[C@H]2C(=O)O			MIC90	9 isolates fluconazole-resistant	2 µg/mL
CCCCCOc1ccc(-c2ccc(-c3ccc(C(=O)N[C@H]4CCCNC(=O)C5C[C@H](NC(=O)C[N+](C)(C)C)CN5C(=O)C(C(C)O)NC(=O)C(CCc5ccc(O)cc5)NC(=O)C5C[C@@H](O)CN5C(=O)C(C(C)O)NC4=O)cc3)cc2)cc1			MIC	ATCC CCH442	0.78 µg/mL
CCCCCCCCCCCCCCCCCC(=O)NC1CC(O)C(O)NC(=O)C2C(O)C(C)CN2C(=O)C(C(C)O)NC(=O)C(C(O)C(O)c2ccc(O)cc2)NC(=O)C2CC(O)CN2C(=O)C(C(C)O)NC1=O			MIC	MY1208	1 µg/mL
CCCCC(Cn1ccnc1)c1c(Cl)cccc1Cl			MIC		100 µg/mL
C[C@@H]1C(=O)N(CCCc2ccccc2)C(=O)[C@@H]1C	broth dilution / turbidity		MIC	ATCC 10231	31.3 µg/mL
C[C@@H](n1cnc2cc(N(C)C)ccc2c1=O)[C@](O)(Cn1cncn1)c1ccc(F)cc1F			MIC	76 strains	5 µg/mL
CCCCCOc1ccc(-c2ccc(C(=O)N[C@H]3CCCNC(=O)C4C[C@H](N)CN4C(=O)C(C(C)O)NC(=O)C(CCc4ccc(O)cc4)NC(=O)C4C[C@@H](O)CN4C(=O)C(C(C)O)NC3=O)cc2)cc1			MIC	ATCC 10231	0.39 µg/mL
CCCCCCC(Cn1ccnc1)c1ccc(Cl)cc1			MIC		100 µg/mL
C[C@@H](n1cnc2cc(OCC(F)(F)C(F)F)ccc2c1=O)[C@](O)(Cn1cncn1)c1ccc(F)cc1F			MIC	60 strains	≤0.03 µg/mL
Cc1ccccc1N1C(=O)CC(C)C1=O	broth dilution / turbidity		MIC	ATCC 10231	250 µg/mL
CCC(C)CC(C)CCCCCCCCC(=O)N[C@H]1C[C@@H](O)[C@H](NCCN)NC(=O)[C@@H]2[C@@H](O)CCN2C(=O)[C@H]([C@H](O)CCN)NC(=O)[C@H]([C@H](O)[C@@H](O)c2ccc(O)cc2)NC(=O)[C@@H]2C[C@@H](O)CN2C(=O)[C@H]([C@@H](C)O)NC1=O	broth dilution	pH 4	MIC	15 isolates	0.06 µg/mL
C=CCc1ccc(OC)c(OC)c1	turbidity		MIC90	2281	350 µg/mL
C[C@@H](n1cnc2cc(-[n+]3cnc[nH]3)ccc2c1=O)[C@](O)(Cn1cncn1)c1ccc(F)cc1F			MIC	76 strains	10 µg/mL
CCCCCC(Cn1ccnc1)c1c(Cl)cccc1Cl			MIC		10 µg/mL
COc1cccc2c(=O)n([C@H](C)[C@](O)(Cn3cncn3)c3ccc(F)cc3F)cnc12			MIC	406 strains	1.25 µg/mL
CCCCCCCCOc1ccc(N2CCN(c3ccc(C(=O)N[C@H]4CCCNC(=O)C5C[C@H](N)CN5C(=O)C(C(C)O)NC(=O)C(Cc5ccc(C)cc5)NC(=O)C5CCCN5C(=O)C(C(C)O)NC4=O)cc3)CC2)cc1			MIC	ATCC CCH442	6.25 µg/mL
C[C@@H](n1cnc2ccc(Br)cc2c1=O)[C@](O)(Cn1cncn1)c1ccc(F)cc1F			MIC	406 strains	≤0.03 µg/mL
C[C@@H]1CC(=O)N(c2ccc(F)cc2)C1=O	broth dilution / turbidity		MIC	ATCC 10231	62.5 µg/mL
CC(C)(O)c1cn(-c2ccc(Cl)cc2)nn1	broth dilution		MIC	URM 4609	128 µg/mL
Cc1ccc(C(O)c2cccc(C(=O)CCn3ccnc3)c2)cc1	broth dilution		MIC	RTCC1024	>64 µg/mL
Nc1[nH]c(=O)ncc1F	broth dilution	pH 6	EC90	10 isolates	2 µg/mL
O=C(CCn1ccnc1)c1cccc(C(O)c2ccc(Cl)cc2)c1	broth dilution		MIC	RTCC1024	64 µg/mL
CCCCCOc1ccc(-c2ccc(-c3ccc(C(=O)N[C@H]4CCCNC(=O)C5C[C@H](NC(=O)NCCC(C)C)CN5C(=O)C(C(C)O)NC(=O)C(CCc5ccc(O)cc5)NC(=O)C5C[C@@H](O)CN5C(=O)C(C(C)O)NC4=O)cc3)cc2)cc1			MIC	ATCC 62376	12.5 µg/mL
CC1C(=O)N(CCCc2ccccc2)C(=O)C1C	broth dilution / turbidity		MIC	ATCC 10231	62.5 µg/mL
OC(CCn1ccnc1)c1cccc(C(O)c2ccc(Cl)c(Cl)c2)c1	broth dilution		MIC	RTCC 1003	>64 µg/mL
OC(CN1CCN(c2ccc(OCc3ccncc3)cc2)CC1)(Cn1cncn1)c1ccc(F)cc1F			MIC80	ATCC64550	≤0.031 µg/mL
CC(=O)OCC1C=C(c2ccc(Br)cc2)C(=O)O1			MIC90	25 isolates	1 µg/mL
OC(CCn1ccnc1)c1ccc(Br)cc1	broth dilution		MIC	RTCC 1003	>64 µg/mL

The first 4 rows once more:

smiles	read by	setting	measure	strain	value
CCCCCCCC(Cn1ccnc1)c1ccc(F)cc1			MIC		10 µg/mL
CCC(C)n1ncn(-c2ccc(N3CCN(c4ccc(OC[C@H]5CO[C@](Cn6cncn6)(c6ccc(Cl)cc6Cl)O5)cc4)CC3)cc2)c1=O			MFC50	12 isolates	>8 µg/mL
CCCCCCCCOc1ccc(C(=O)NC2C[C@@H](O)[C@@H](O)NC(=O)C3[C@@H](O)[C@@H](C)CN3C(=O)C(C(C)O)NC(=O)C([C@H](O)[C@@H](O)c3ccc(O)cc3)NC(=O)C3C[C@@H](O)CN3C(=O)C(C(C)O)NC2=O)cc1			MIC	MY1208	1 µg/mL
C[C@@H](n1cnc2cc(F)ccc2c1=O)[C@](O)(Cn1cncn1)c1ccc(F)cc1F			MIC	60 strains	0.07 µg/mL